From article PMC3520877, “Harpalycin 2 inhibits the enzymatic and platelet aggregation activities of PrTX-III, a D49 phospholipase A2 from Bothrops pirajai venom” (2012)

Chains of the proteins cited; added tags and fusions are not shown. Lines headed by an entry give the natural chain unless they say otherwise; changes in a name come on top.
UniProt P58464: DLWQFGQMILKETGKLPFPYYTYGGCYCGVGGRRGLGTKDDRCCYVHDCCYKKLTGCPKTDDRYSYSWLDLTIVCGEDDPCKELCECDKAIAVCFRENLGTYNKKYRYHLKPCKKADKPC

Molecular target: PrTX-III (piratoxin-III), D49 phospholipase A2 (Bothrops pirajai, UniProt P58464)
Test: chromogenic PLA2 assay, absorbance at […] nm
Conditions: 4-nitro-3-octanoyloxy-benzoic acid substrate, 37°C

In the case of `O=C(CBr)c1ccc(Br)cc1`, the “inhibition of Vo at 425 nm” value is reported as “p-BPB showed only a marginal inhibition of PrTX-III catalytic active”.

In the case of harpalycin 2, the IC50 (20 μg enzyme, DMSO 1%, unit contradictory in the paper: abstract μg/mL, b38 μg per well) is reported as 11.34 ± 0.28 µg/mL.
